PMC6753678, “Fueling Open Innovation for Malaria Transmission-Blocking Drugs: Hundreds of Molecules Targeting Early Parasite Mosquito Stages” (Frontiers in Microbiology, 2019)

System: P. falciparum female gametocytes
Experiment: P. falciparum female gametogenesis assay (Pf FGAA)
Conditions: >10-fold green
[1] = unified cytotox / Pf FGAA IC50, <10-fold selectivity red
[2] = unified cytotox / IC50, <10-fold red

Row | Compound | Assay tox ratio Pf FGAA [1] | Assay tox ratio Pf FGAA [2]
1 | COc1ccc(NC(=O)Nc2ccc(Nc3nc(C)cc(N4CCCC4)n3)cc2)cc1 [TCMDC-124958] | 11.05 | 
2 | O=C(c1ccc([N+](=O)[O-])o1)N1CCN(c2nc3c(F)cc(F)cc3s2)CC1 [TCMDC-125149] | 76.53 | 
3 | CNCCCNCc1ccc(-c2ccc(F)c(Cl)c2)o1.Cl [TCMDC-125237] | 5.68 | 
4 | Cc1ccc(-n2c(Sc3ncnc4sccc34)nnc2N2CCCC2)cc1 [TCMDC-125247] |  | 165.77
5 | COc1cc(OC)cc(C(=O)Nc2nc(-c3ccccn3)cs2)c1 [TCMDC-125345] | 111.27 | 
6 | CC(Nc1cc(-c2ccccn2)nc(-c2ccccn2)n1)c1ccccc1 (centres unmarked) [TCMDC-125420] | 29.80 | 
7 | c1ccc(CNc2cc(-c3ccccn3)nc(-c3ccccn3)n2)cc1 [TCMDC-125421] | 40.15 | 
8 | O=C(Nc1nc(-c2ccccn2)cs1)c1ccc(S(=O)(=O)N2CCc3ccccc32)cc1 [TCMDC-125432] |  | 15.68
9 | Fc1ccc2nc(Nc3nc(-c4ccccn4)cs3)sc2c1 [TCMDC-125540] | 1073.05 | 
10 | Oc1c(C(Nc2ccccn2)c2ccc(Cl)cc2Cl)ccc2cccnc12 (centres unmarked) [TCMDC-125559] | 11.16 | 
11 | Oc1c(C(Nc2nc3ccccc3s2)c2ccccc2)ccc2cccnc12 (centres unmarked) [TCMDC-125565] |  | 0.77
12 | O=C(Nc1cc(C(F)(F)F)cc(C(F)(F)F)c1)Nc1ccc(Cl)c(Cl)c1 [TCMDC-125592] | 2.15 | 
13 | CCCC(N)C(=O)NC1CCN(c2c(F)c(N)c3c(=O)c(C(=O)O)cn4c3c2Oc2ccccc2-4)C1.Cl (centres unmarked) [TCMDC-125701] |  | 2.30
14 | ON=C(c1nc2ccccc2[nH]1)c1nc2ccccc2[nH]1 [TCMDC-125758] | 14.86 | 
15 | c1ccc(-c2nc(NC3CCCCC3)cc(C3CC3)n2)nc1 [TCMDC-125825] | 307.80 | 
16 | CC(C)(C)c1cc(NC2CC2)nc(-c2ccccn2)n1 [TCMDC-125826] | 856.97 | 
17 | COc1ccc2nc3cc(Cl)ccc3c(N)c2c1.Cl [TCMDC-125835] |  | 5.73
18 | CCN(CCNS(C)(=O)=O)c1ccc(N)c(C)c1.O.O=S(=O)(O)O [TCMDC-125836] | 22.91 | 
19 | Br.Oc1ccc(CCNCCCCCCNCCc2ccc(-c3ccccc3)cc2)cc1O [TCMDC-131268] | 1.21 | 
20 | Br.CC(C)(Cc1ccc(Cl)cc1)NCCCCCCNCCc1ccc(O)c(O)c1 [TCMDC-131277] | 1.14 | 
21 | C[C@H](Cc1ccc(OCCCCCCOc2ccc(C[C@@H](C)N[C@H](C)c3ccccc3)cc2)cc1)NC[C@H](O)c1cccc(Cl)c1.Cl [TCMDC-131564] | 5.97 | 
22 | Br.CCc1c(CCNCCCCCCNCCc2ccc(Br)cc2)ccc(O)c1O [TCMDC-132044] | 6.15 | 
23 | Cc1c2ccncc2c(C)c2c1[nH]c1cc(Cc3ccccc3)c(O)cc12 [TCMDC-132053] | 1.13 | 

Row | Compound | Assay tox ratio Pf FGAA [1] | Assay tox ratio Pf FGAA [2]
24 | CCc1c(CCNC/C=C/C=C/CNCCc2ccc(OC)c(OC)c2CC)ccc(OC)c1OC.Cl [TCMDC-132061] | 1.82 | 
25 | CCc1c(CCNCCCCCNCCc2ccc(OC)c(OC)c2CC)ccc(OC)c1OC.Cl [TCMDC-132064] | 2.28 | 
26 | CCc1c(CCNCCCCCCNCCc2ccc3c(c2C)OCO3)ccc2c1OCO2.Cl [TCMDC-132093] | 3.81 | 
27 | CN(C)Cc1cccc2nc(-c3csc(Cc4cc(Cl)ccc4OCc4ccccc4)n3)[nH]c12 [TCMDC-132174] | 6.21 | 
28 | O=C(O)C(F)(F)F.O=S(=O)(NCCN1CCCC1)c1ccc(-c2cccc(CNC3Cc4ccccc4C3)c2)cc1 [TCMDC-132215] | 2.38 | 
29 | O=C(O)C(F)(F)F.O=S(=O)(NCCN1CCCC1)c1ccc(-c2cccc(CNC3Cc4ccccc4C3)c2)s1 [TCMDC-132217] | 4.26 | 
30 | CN1CCC(NCc2cccc(-c3ccc(S(=O)(=O)NCc4ccccc4)c(F)c3)c2)CC1.O=C(O)C(F)(F)F [TCMDC-132219] | 1.95 | 
31 | O=C(O)C(F)(F)F.O=S(=O)(NCCN1CCCC1)c1ccc(-c2ccc(CNC3Cc4ccccc4C3)cc2)s1 [TCMDC-132234] | 2.56 | 
32 | Cc1cc(-c2ccc(CNC3Cc4ccccc4C3)cc2)ccc1S(=O)(=O)NCCN1CCCC1.O=C(O)C(F)(F)F [TCMDC-132243] | 2.90 | 
33 | COc1ccc(CNC2CCN(C)CC2)cc1-c1ccc(S(=O)(=O)NCc2ccccc2)s1.O=C(O)C(F)(F)F [TCMDC-132253] | 3.13 | 
34 | COc1ccc(CNC2Cc3ccccc3C2)cc1-c1ccc(S(=O)(=O)NCCN2CCCC2)s1.O=C(O)C(F)(F)F [TCMDC-132258] | 3.82 | 
35 | COc1ccc(CNC2Cc3ccccc3C2)cc1-c1ccc(S(=O)(=O)NCCN2CCCC2)c(F)c1.O=C(O)C(F)(F)F [TCMDC-132266] | 3.10 | 
36 | Cl.N[C@@H](CCNC1CCN(c2cccc(C(F)(F)F)c2)CC1)Cc1ccc(F)c(F)c1 [TCMDC-132301] | 8.50 | 
37 | Cc1ccc(Cn2nc(N3CCNCC3)ccc2=O)cc1NC(=O)Nc1ccc(-c2ccccc2)cc1.O=C(O)C(F)(F)F [TCMDC-132580] | 3.83 | 
38 | O=S(=O)(Nc1cccc(F)c1CNCc1ccccn1)c1ccc(Cl)c(Cl)c1 [TCMDC-132598] | 15.04 | 
39 | Cc1cccc2nc(-c3ccc(-c4ccc(CNCc5ccc(CN)cc5)cc4)cc3)[nH]c12.O=C(O)C(F)(F)F [TCMDC-132813] | 8.37 | 
40 | NCc1ccc(CNCc2ccc(-c3ccc(-c4nc5cc(C(F)(F)F)ccc5[nH]4)s3)cc2)cc1.O=C(O)C(F)(F)F [TCMDC-132814] | 8.12 | 
41 | CNCCNCc1ccc(-c2ccc(-c3nc4cc(C(F)(F)F)ccc4[nH]3)s2)cc1.O=C(O)C(F)(F)F [TCMDC-132838] | 4.75 | 
42 | FC(F)(F)c1ccc2[nH]c(-c3ccc(-c4ccc(CNCCN5CCNCC5)cc4)cc3)nc2c1.O=C(O)C(F)(F)F [TCMDC-132865] | 11.65 | 
43 | Cc1cccc2nc(-c3ccc(-c4ccc(CNCCN5CCNCC5)cc4)s3)[nH]c12.O=C(O)C(F)(F)F [TCMDC-132870] | 9.35 | 
44 | FC(F)(F)c1ccc2[nH]c(-c3cccc(-c4cccc(CNCCN5CCNCC5)c4)c3)nc2c1.O=C(O)C(F)(F)F [TCMDC-132871] | 5.42 | 
45 | CCCN(CC1CC1)c1ncc(-c2cccc(CNCCC3CCCN3C)c2)cn1 (centres unmarked) [TCMDC-133142] | 1.42 | 
46 | CN(CCc1ccccc1)c1ncc(-c2cccc(CNCCC3CCCN3C)c2)cn1 (centres unmarked) [TCMDC-133143] | 2.13 | 

Row | Compound | Assay tox ratio Pf FGAA [1] | Assay tox ratio Pf FGAA [2]
47 | CN1CCCC1CCNCc1cccc(-c2cnc(N3CCCC(C)(C)C3)nc2)c1 (centres unmarked) [TCMDC-133144] | 2.77 | 
48 | O=C(Nc1cccc(-c2cccc(-c3nc4cc(C(F)(F)F)ccc4[nH]3)c2)c1)Nc1ccc(F)c(F)c1F [TCMDC-133229] | 2.46 | 
49 | COc1ccccc1C1CCN(C2CCC(NC(=O)c3ccc4[nH]c(-c5ccc(C)cc5)nc4c3)CC2)CC1 (centres unmarked) [TCMDC-133556] | 1.60 | 
50 | CN1CCC(N2CCN(Cc3cccc(-c4ccc(-c5nc6cc(C(F)(F)F)ccc6[nH]5)cc4)c3)CC2)CC1.O=C(O)C(F)(F)F [TCMDC-133842] | 2.23 | 
51 | CN1CCCC(CN2CCN(Cc3cccc(-c4ccc(-c5nc6cc(C(F)(F)F)ccc6[nH]5)cc4)c3)CC2)C1.O=C(O)C(F)(F)F (centres unmarked) [TCMDC-133882] | 3.14 | 
52 | O=C(O)C(F)(F)F.c1cc(CN2CCC(CCN3CCCCC3)CC2)cc(-c2csc(-c3nc4ccccc4[nH]3)c2)c1 [TCMDC-133919] | 2.87 | 
53 | Cl.NC1CCN(CCc2ccc(NS(=O)(=O)c3ccc(-c4ccccc4)cc3)cc2)CC1 [TCMDC-134085] | 9.58 | 
54 | Cn1c(Nc2cc(C(C)(C)C)on2)nc2cc(Nc3ccnc(Nc4cccc(S(=O)(=O)N5CCOCC5)c4)n3)ccc21 [TCMDC-134098] | 6.83 | 
55 | Cc1cc(Nc2ncc(C#N)c(Nc3ccccc3C(N)=O)n2)ccc1N1CCN(C)CC1.Cl [TCMDC-134115] |  | 1.31
56 | Cc1ccc(C(C(=O)Nc2ccc(N3CCNCC3)c(Cl)c2)c2ccccc2)cc1 (centres unmarked) [TCMDC-134292] | 18.11 | 
57 | CC(C)c1ccc(CN2CCC(CNC(=O)c3cc(-c4cccc(C(F)(F)F)c4)cs3)C2)cc1.O=C(O)C(F)(F)F (centres unmarked) [TCMDC-134435] | 3.93 | 
58 | CC(C)c1ccc(CN2CCC(CNC(=O)c3cc(-c4ccccc4F)cs3)C2)cc1.O=C(O)C(F)(F)F (centres unmarked) [TCMDC-134436] | 8.46 | 
59 | CC(C)c1ccc(CN2CCC(CNC(=O)c3cc(-c4cccc(Cl)c4)cs3)C2)cc1.O=C(O)C(F)(F)F (centres unmarked) [TCMDC-134438] | 10.89 | 
60 | COc1cccc(-c2csc(C(=O)NCC3CCN(Cc4ccc(C(C)C)cc4)C3)c2)c1.O=C(O)C(F)(F)F (centres unmarked) [TCMDC-134439] | 8.39 | 
61 | CC(C)c1ccc(CN2CCC(CNC(=O)c3cc(-c4ccc(N(C)C)cc4)cs3)C2)cc1.O=C(O)C(F)(F)F (centres unmarked) [TCMDC-134440] | 8.27 | 
62 | CC(C)(C)c1ccc(CN2CCC(CNC(=O)c3cc(-c4cccc(F)c4)cs3)C2)cc1.O=C(O)C(F)(F)F (centres unmarked) [TCMDC-134444] | 5.01 | 
63 | CCc1ccccc1-c1csc(C(=O)NCC2CCN(Cc3ccc(C(C)(C)C)cc3)C2)c1.O=C(O)C(F)(F)F (centres unmarked) [TCMDC-134448] | 6.39 | 
64 | CN(C)c1ccc(-c2csc(C(=O)NCC3CCN(Cc4ccc(C(C)(C)C)cc4)C3)c2)cc1.O=C(O)C(F)(F)F (centres unmarked) [TCMDC-134449] | 11.99 | 
65 | O=C(NCC1CCN(Cc2cccc(C(F)(F)F)c2)C1)c1cc(-c2cccc(C(F)(F)F)c2)cs1.O=C(O)C(F)(F)F (centres unmarked) [TCMDC-134483] | 9.83 | 
66 | O=C(NCC1CCN(Cc2cccc(C(F)(F)F)c2)C1)c1cc(-c2cccc(F)c2)cs1.O=C(O)C(F)(F)F (centres unmarked) [TCMDC-134484] | 8.35 | 
67 | O=C(NCC1CCN(Cc2cccc(C(F)(F)F)c2)C1)c1cc(-c2cccc(Cl)c2)cs1.O=C(O)C(F)(F)F (centres unmarked) [TCMDC-134485] | 18.01 | 
68 | CN(C)c1ccc(-c2csc(C(=O)NCC3CCN(Cc4cccc(C(F)(F)F)c4)C3)c2)cc1.O=C(O)C(F)(F)F (centres unmarked) [TCMDC-134486] | 5.26 | 
